What was measured:
DP178-Q16L [1] = assay: ELISA on plate-bound DP178-Q16L, 2F5 titrated (overlay with rhKYNU)
DP178-Q16L [2] = assay: ELISA on plate-bound MPER 2F5 peptide (DP178-Q16L), antibody titrated

2F5 (antibody)
EC50 (read off the curve) (DP178-Q16L [1]): 0.02 µg/mL
EC50 (read off the curve) (DP178-Q16L [2]): 0.02 µg/mL
